Literature values, collected in patent US20040096356A1, “Assay device for determining analytes in a liquid dairy product” (priority 1997, published 2004).

Tested on: protein isolated from an antibiotic-sensitive microorganism, such as Bacillus stearothermophilus
Conditions: milk; according to Example 1 of EP 593 112; cited from earlier work

Row | SMILES | concentration down to which the test detects the antibiotic
1 | CC1(C)S[C@@H]2[C@H](NC(=O)[C@H](N)c3ccccc3)C(=O)N2[C@H]1C(=O)O [ampicillin] | 10 ppb
2 | CC1(C)S[C@@H]2[C@H](NC(=O)[C@H](N)c3ccc(O)cc3)C(=O)N2[C@H]1C(=O)O [amoxicillin] | 5 ppb
3 | CC1(C)S[C@@H]2[C@H](NC(=O)Cc3ccccc3)C(=O)N2[C@H]1C(=O)O [Penicillin G, penicillin G] | ~5 ppb
4 | CO/N=C(\C(=O)N[C@@H]1C(=O)N2C(C(=O)O)=C(CSC(=O)c3ccco3)CS[C@H]12)c1csc(N)n1 [Ceftiofur, ceftiofur] | 5 ppb
